In patent USRE42152E1, “Aromatic-linked polyamine macrocyclic compounds with anti-HIV activity” (Genzyme Corporation, priority 1992, dated 2011):

Tested on: HIV uncoating (or fusion)
Test: Sensitivity of viral RNA from freshly infected MT4 cells to RNase degradation (uncoating)
Assay type: cell-based
Conditions: radiolabelled viral particles, RNA harvested 4 hours after infection
Description: It was reasoned that if tincoating (fusion) was hampered, the viral capsid (or envelope) proteins would remain associated with the viral RNA genome and thus the RNA should be protected against RNase attack.

Cc1cn([C@H]2C[C@H](N=[N+]=[N-])[C@@H](CO)O2)c(=O)[nH]c1=O [AZT, reference compound]
resistance of viral RNA to degradation by RNase: did not show this increased resistance
